Data: US20090029924A1, “Targeting host proteinases as a therapeutic strategy against viral and bacterial pathogens” (published 2009)

B1: … (peptide)
peptide: TPQRARRRKKRF
modifications: not checked
B2: … (peptide)
peptide: TPQRARRRKKRW
modifications: not checked
B3: … (peptide)
peptide: TPQRARRRKKRM
modifications: not checked
B4: … (peptide)
peptide: TPQRARRRKKRY
modifications: not checked
B5: … (peptide)
peptide: TPQRARRRKKRD
modifications: not checked
B6: … (peptide)
peptide: TPQRARRRKKRE
modifications: not checked
B7: … (peptide)
peptide: TPQRARRRKKRG
modifications: not checked
B8: … (peptide)
peptide: TPQRERRRKKRG
modifications: not checked
B9: … (peptide)
peptide: AARERRRKKR
modifications: not checked
B10: … (peptide)
peptide: AARERRRKKRG
modifications: not checked
B11: … (peptide)
peptide: TPQRARRRKKRV
modifications: not checked

Molecular target: Recombinant human furin (human), P09958
Experiment: furin, Pyr-RTKR-AMC cleavage

| Binder | Ki |
| --- | --- |
| B1 | 44 nM |
| B2 | 34 nM |
| B3 | 58 nM |
| B4 | 47 nM |
| B5 | 50 nM |
| B6 | 103 nM |
| B7 | > 100 nM |
| B8 | > 100 nM |
| B9 | > 100 nM |
| B10 | > 100 nM |
| B11 | 48 nM |
